A mixed list of measured activities; the numbers were collected in NIAID ChemDB.

Common to all: host cell toxicity; endpoint: CC50

Lines come from different laboratories, so protocols vary. CCn is the concentration with n% toxicity to the cells.

{"structure": "CC(C)(O)c1cn(-c2ccnc3cc(Cl)ccc23)nn1", "cell line": "BGM", "read by": "MTT", "result": "≥694 µM"}
{"structure": "Nc1nc2c(sc(=O)n2C/C=C\\CO)c(=O)[nH]1", "cell line": "BFU-E", "result": "13 µM"}
{"structure": "CN1CCCC(NC(=O)NCCc2ccc3c(n2)NCCC3)C1", "cell line": "PBMC", "result": "50 µM"}
{"structure": "O=Cc1cn(-c2ccnc3cc(Cl)ccc23)nn1", "cell line": "BGM", "read by": "MTT", "result": "477 µM"}
{"structure": "CN(C)c1ccc(NC(=S)NCCc2ccc3c(n2)NCCC3)c2ccccc12", "cell line": "PBMC", "result": "1.9 µM"}
{"structure": "COC1=NO[C@@]2(CC[C@H](CF)N3C[C@H]2n2cc(C(=O)NCc4ccc(F)cc4F)c(=O)c(O)c2C3=O)C1", "cell line": "MT-4", "read by": "luminescence", "result": "50 µM"}
{"structure": "CC(C)=CCC1C[C@]2(CC=C(C)C)C(=O)/C(=C(/O)c3ccccc3)C(=O)[C@@](CC=C(C)C)(C2=O)C1(C)C", "cell line": "3T3.T4.CCR5", "result": "1.13 µM"}
{"structure": "Cc1ccc2nc(Cl)c(/C=C/C(=O)c3ccc4ccccc4c3)cc2c1", "cell line": "CEM", "read by": "MTS", "result": "22.6 µM"}
{"structure": "CCOC(=O)c1c(C)n(C)c2cc(F)c(O)cc12", "cell line": "Huh7.3", "read by": "ATP", "result": "105.7 µM"}
{"structure": "CC1COc2c(N3CCN(C)CC3)c(F)cc3c(=O)c(C(=O)O)cn1c23", "cell line": "SK-K", "result": "375 µg/mL"}
{"structure": "CCOC(=O)c1ccc(-c2ccc([N+](=O)[O-])cc2)nc1C", "cell line": "L6 cells", "read by": "MTT", "result": "27 µM"}
{"structure": "C[C@H]1CC[C@]2(CC(=O)N(Cc3cccnc3)O2)[C@H]2CN1C(=O)c1c(O)c(=O)c(C(=O)NCc3c(F)cc(F)cc3F)cn12", "cell line": "MT-4", "read by": "luminescence", "result": "50 µM"}
{"structure": "CCOC(=O)c1c(CO)n(C)c2cc(-c3cccnc3)c(O)c(CN(C)C)c12", "cell line": "Huh7.3", "read by": "ATP", "result": "100 µM"}
{"structure": "CSc1nsc(-c2ccc(OCCc3ccccc3)cc2)c1C#N", "cell line": "HELA-OHIO", "result": ">50 µM"}
{"structure": "CN(C(=O)[C@H](Cc1ccccc1)NC(=O)c1c[nH]c(=O)[nH]c1=O)c1ccccc1", "cell line": "TZM-gfp", "read by": "XTT", "result": ">50 µM"}
{"structure": "CCOC(=O)c1ccc(OCCCCOc2ccc(-c3snc(SC)c3C#N)cc2)cc1", "cell line": "HEP-2/L-929/VERO", "result": "2 µM"}
{"structure": "CC1=NO[C@]2(CC[C@H](C)N3C[C@H]2n2cc(C(=O)NCc4ccc(F)cc4F)c(=O)c(O)c2C3=O)C1=O", "cell line": "MT-4", "read by": "luminescence", "result": "50 µM"}
{"structure": "COc1ccc2nc(Cl)c(/C=C/C(=O)c3cc(C)oc3C)cc2c1", "cell line": "CEM", "read by": "MTS", "result": ">100 µM"}
{"structure": "CCC[C@@H](C)[C@@H]1OC(=O)[C@H](C(C)C)N(C)C(=O)[C@H](CO)NC(=O)[C@H]([C@H](C)C(N)=O)NC(=O)[C@@H](C(C)OC(N)=O)NC(=O)[C@H](O)CNC(=O)/C=C/C=C/C[C@H](O)[C@H]1C", "cell line": "HCT116", "read by": "MTT", "result": ">25 µg/mL"}
{"structure": "CC[C@H]1CN2CCc3cc(OC)c(OC)cc3[C@@H]2C[C@@H]1C[C@H]1NCCc2cc(OC)c(OC)cc21", "cell line": "L6", "read by": "MTT", "result": "0.04 µM"}
{"structure": "Cc1cn(CC(=O)N[C@@H](Cc2ccccc2)C(=O)N(C)c2cccc(Cl)c2)c(=O)[nH]c1=O", "cell line": "TZM-gfp", "read by": "XTT", "result": ">50 µM"}
{"structure": "CSc1nsc(-c2ccc(OCc3ccccc3)cc2)c1C#N", "cell line": "HELA-OHIO", "result": ">50 µM"}
{"structure": "O=C(CNC(=O)c1ccccc1)N[C@@H](Cc1ccccc1)C(=O)N1CCC[C@H]1C(=O)Nc1ccccc1", "cell line": "TZM-gfp", "read by": "XTT", "result": ">50 µM"}
{"structure": "C[C@H]1CC[C@@]2(CC(C#CC(C)(C)S(C)(=O)=O)=NO2)[C@H]2CN1C(=O)c1c(O)c(=O)c(C(=O)NCc3c(F)cc(F)cc3F)cn12", "cell line": "MT-4", "read by": "luminescence", "result": "50 µM"}
{"structure": "Cc1nc(Cl)ccc1NC(=O)NCCc1ccc2c(n1)NCCC2", "cell line": "PBMC", "result": "5.7 µM"}
{"structure": "Nc1nc(=O)n([C@@H]2CC[C@H](CO)O2)cc1F", "cell line": "RAJI", "result": "25 µM"}
{"structure": "CSc1nsc(-c2ccc(OCCCOc3ccc(C#N)cc3)cc2)c1C#N", "cell line": "HEP-2/L-929/VERO", "result": "2 µM"}
{"structure": "CC1=NO[C@@]2(CC[C@H](C)N3C[C@H]2n2cc(C(=O)NCc4ccc(F)cc4F)c(=O)c(O)c2C3=O)N1C", "cell line": "MT-4", "read by": "luminescence", "result": "50 µM"}
{"structure": "COc1ccc2nc(Cl)c(/C=C/C(=O)c3ccsc3)cc2c1", "cell line": "VERO", "read by": "MTS", "result": "9.1 µM"}
{"structure": "CCOc1cccnc1NC(=O)NCCc1ccc2c(n1)NCCC2", "cell line": "PBMC", "result": "50 µM"}
{"structure": "C=C(C)C1CC[C@]2(C(=O)O)CC[C@@]3(C)[C@]4(C)CC[C@H]5C(C)(C)[C@@H](OC(=O)/C=C\\c6ccc(O)cc6)CC[C@]5(C)[C@H]4CC[C@]3(C)[C@@H]12", "cell line": "L6 cells", "read by": "MTT", "result": "5.6 µM"}
{"structure": "CCCc1cn([C@@H]2C[C@H](F)[C@@H](CO)O2)c(=O)[nH]c1=O", "cell line": "F5000 (human embryo)", "result": "250 µM"}
{"structure": "CCOC(=O)c1c(CSc2ccccc2)n(C)c2cc(Br)c(O)c(CN(C)C)c12.Cl", "cell line": "Huh7.3", "read by": "ATP", "result": "18.9 µM"}
{"structure": "C[C@H]1CC[C@@]2(CCO2)[C@H]2CN1C(=O)c1c(O)c(=O)c(C(=O)NCc3c(F)cc(F)cc3F)cn12", "cell line": "MT-4", "read by": "luminescence", "result": "50 µM"}
{"structure": "O=c1[nH]c(=O)n([C@H]2C[C@H](O)[C@@H](CO)O2)cc1/C=C/Br", "cell line": "HEL 299", "result": ">200 µM"}
{"structure": "COc1ccc2nc(Cl)c(/C=C/C(=O)c3ccc4c(c3)OCCO4)cc2c1", "cell line": "CEM", "read by": "MTS", "result": "31.6 µM"}
{"structure": "Clc1ccc2c(-n3cc(C4CC4)nn3)ccnc2c1", "cell line": "BGM", "read by": "MTT", "result": "≥738 µM"}
{"structure": "COc1ccc2nc(Cl)c(/C=C/C(=O)c3ccc(C)o3)cc2c1", "cell line": "CEM", "read by": "MTS", "result": "15.7 µM"}
{"structure": "COC(=O)c1cn(-c2ccnc3cc(Cl)ccc23)nn1", "cell line": "BGM", "read by": "MTT", "result": "≥694 µM"}
{"structure": "C[C@H]1CC[C@]2(CCC(=O)N2)[C@H]2CN1C(=O)c1c(O)c(=O)c(C(=O)NCc3c(F)cc(F)cc3F)cn12", "cell line": "MT-4", "read by": "luminescence", "result": "50 µM"}
{"structure": "C=C(C)C1CC[C@]2(C(=O)O)CC[C@@]3(C)[C@]4(C)CC[C@H]5C(C)(C)[C@@H](OC(C)=O)CC[C@]5(C)[C@H]4CC[C@]3(C)[C@@H]12", "cell line": "L6 cells", "read by": "MTT", "result": "5.2 µM"}
{"structure": "C[C@@H](NC(=O)NCCc1ccc2c(n1)NCCC2)c1ccc2ccccc2c1", "cell line": "PBMC", "result": "50 µM"}
{"structure": "CN(C(=O)[C@H](Cc1ccccc1)NC(=O)CC1NC(=O)NC1=O)c1ccccc1", "cell line": "TZM-gfp", "read by": "XTT", "result": ">50 µM"}
{"structure": "Clc1nccc2[nH]c(CC3CCCCC3)c(CN3CCOCC3)c12", "cell line": "HEK293T", "read by": "MTT", "result": "21.2 µg/mL"}

4 of the rows above, restated:

structure	cell line	read by	result
COC(=O)c1cn(-c2ccnc3cc(Cl)ccc23)nn1	BGM	MTT	≥694 µM
O=C(CNC(=O)c1ccccc1)N[C@@H](Cc1ccccc1)C(=O)N1CCC[C@H]1C(=O)Nc1ccccc1	TZM-gfp	XTT	>50 µM
COc1ccc2nc(Cl)c(/C=C/C(=O)c3ccc(C)o3)cc2c1	CEM	MTS	15.7 µM
O=Cc1cn(-c2ccnc3cc(Cl)ccc23)nn1	BGM	MTT	477 µM